A mixed list of measured activities; the numbers were collected in NIAID ChemDB.

Common to all: growth or infection tests; organism: Hepatitis B virus; read by: PCR; endpoint: EC50

ECn: concentration that inhibits the pathogen or its effect by n%. Rows are shuffled and stem from different studies. a–b is a range or a potency band.

SMILES,cells,result
CC(C)COc1ccc(-n2c(C(=O)NCc3ccccc3)c3n(c2=O)CCN(C(=O)c2ccc(Br)c(Cl)c2)C3)cc1,HepG2.117,0.1–0.5 µM
C#CC1(NC(=O)C(=O)c2c(C)c(C(=O)Nc3ccc(F)c(C#N)c3)n(C)c2Cl)CC1(F)F,HepG2.2.15,<0.001 µM
CCC(O)CNC(=O)c1ccc2c(C(=O)Nc3ccc(F)c(Cl)c3)n(C)nc2c1,HepAD38,>1000 µM
C#C[C@H](NC(=O)C(=O)c1c(C)c(C(=O)Nc2ccc(F)c(C#N)c2)n(C)c1C)OC,HepG2.2.15,0.001–0.0099 µM
CCNC(=O)C(=O)N1CCC(C)(NS(=O)(=O)c2cn(C)c(C(=O)Nc3cc(F)c(F)c(F)c3)c2F)CC1,HepAD38 cells,0.1–0.3 µM
C[C@H]1Cn2c(c3n(c2=O)C[C@H](F)CN(Cc2ccccc2)C3=O)CN1C(=O)c1ccc(Br)c(Cl)c1,HepG2.117,0.1–0.5 µM
Cn1nc2cc(NCS(=O)(=O)C3CC3)ccc2c1C(=O)Nc1ccc(F)c(Cl)c1,HepAD38,100–1000 µM
CN(C)C(=O)C(=O)N1CC[C@@H](NS(=O)(=O)c2cn(C)c(C(=O)Nc3cc(F)c(F)c(F)c3)c2F)C1,HepAD38 cells,<0.1 µM
COc1ccc(-n2c(C(=O)NCc3ccccc3)c3n(c2=O)CCN(c2ncnc4cc(Cl)c(Cl)cc24)C3)cc1,HepG2.117,>5 µM
CN(C)S(=O)(=O)N1CC[C@@H](NS(=O)(=O)c2cn(C)c(C(=O)Nc3ccc(F)c(F)c3)c2F)C1,HepAD38 cells,<0.1 µM
Cn1nc2cc(NS(=O)(=O)NCCO)ccc2c1C(=O)Nc1ccc(F)c(Cl)c1,HepAD38,<100 µM
C=C[C@H](NC(=O)C(=O)c1c(C)c(C(=O)Nc2ccc(F)c(C#N)c2)n(C)c1C)C(F)(F)F,HepG2.2.15,<0.001 µM
CN(C)c1ccnc(-n2cc(S(=O)(=O)Nc3ccc4c(C(=O)Nc5ccc(F)c(Cl)c5)n(C)nc4c3)cn2)n1,HepAD38,<100 µM
C#C[C@H](CCO)NC(=O)C(=O)c1c(C)c(C(=O)Nc2ccc(F)c(C#N)c2)n(C)c1C,HepG2.2.15,0.001–0.0099 µM
O=C(NCc1ccc(OC(F)(F)F)cc1F)c1c2n(c(=O)n1-c1ccc(OC3CC3)cc1)CCN(C(=O)c1ccc(Br)c(Cl)c1)C2,HepG2.117,0.5–5 µM
C=C[C@](CO)(NC(=O)C(=O)c1c(C)c(C(=O)Nc2ccc(F)c(C(F)(F)F)c2)n(C)c1C)C(F)(F)F,HepG2.2.15,0.001–0.0099 µM
O=C(NC1(c2ccccc2)CC1)c1c2n(c(=O)n1-c1ccccc1)CCN(C(=O)c1ccc(Br)c(Cl)c1)C2,HepG2.117,>5 µM
Cc1c(C(=O)C(=O)NC2(c3cn[nH]c3)COC2)c(C)n(C)c1C(=O)Nc1ccc(F)c(C#N)c1,HepG2.2.15,0.001–0.0099 µM
CS(=O)(=O)c1ccc(-n2c(C(=O)NCc3ccccc3)c3n(c2=O)CCN(C(=O)c2ccc(Br)c(Cl)c2)C3)cc1,HepG2.117,0.5–5 µM
Cc1cccnc1CNS(=O)(=O)Nc1ccc2c(C(=O)Nc3ccc(F)c(Cl)c3)n(C)nc2c1,HepAD38,100–1000 µM
Cc1c(C(=O)C(=O)NC(C)(C)c2ccncn2)c(C)n(C)c1C(=O)Nc1ccc(F)c(C(F)(F)F)c1,HepG2.2.15,<0.001 µM
Cc1ncccc1-n1cc(S(=O)(=O)Nc2ccc3c(C(=O)Nc4ccc(F)c(Cl)c4)n(C)nc3c2)cn1,HepAD38,100–1000 µM
C#CCNC(=O)C(=O)c1c(Cl)c(C(=O)Nc2ccc(F)c(C#N)c2)n(C)c1C,HepG2.2.15,0.001–0.0099 µM
Cn1nc2cc(NS(=O)(=O)NC3CC3)ccc2c1C(=O)Nc1ccc(F)c(Cl)c1,HepAD38,<100 µM
C[C@@H](Oc1ccc(CNC(=O)c2c3n(c(=O)n2-c2ccc(OC4CC4)cc2)CCN(C(=O)c2ccc(Br)c(Cl)c2)C3)c(F)c1)C(N)=O,HepG2.117,0.1–0.5 µM
Cn1nc2cc(NS(=O)(=O)NCC3CNC3)ccc2c1C(=O)Nc1ccc(F)c(Cl)c1,HepAD38,>1000 µM
CCCn1cc(S(=O)(=O)N[C@@H]2CCN(C(=O)C(=O)NC)C2)c(F)c1C(=O)Nc1ccc(F)c(F)c1,HepAD38 cells,<0.1 µM

Repeating the first 4 entries:

SMILES | cells | result
CC(C)COc1ccc(-n2c(C(=O)NCc3ccccc3)c3n(c2=O)CCN(C(=O)c2ccc(Br)c(Cl)c2)C3)cc1 | HepG2.117 | 0.1–0.5 µM
C#CC1(NC(=O)C(=O)c2c(C)c(C(=O)Nc3ccc(F)c(C#N)c3)n(C)c2Cl)CC1(F)F | HepG2.2.15 | <0.001 µM
CCC(O)CNC(=O)c1ccc2c(C(=O)Nc3ccc(F)c(Cl)c3)n(C)nc2c1 | HepAD38 | >1000 µM
C#C[C@H](NC(=O)C(=O)c1c(C)c(C(=O)Nc2ccc(F)c(C#N)c2)n(C)c1C)OC | HepG2.2.15 | 0.001–0.0099 µM